Laboratory results from paper PMC9770395 (PLOS Neglected Tropical Diseases, 2022).
Read-outs that look alike come from different tables or passages of the source.

Tests used:
[1] = system: CT- and STa-stimulated Cl^- secretion in T84 cell monolayers; assay: cells; format: cell-based; conditions: Homo sapiens

In the case of `CC[C@H](C)C(=O)O[C@H]1C[C@@H](C)C=C2C=C[C@H](C)[C@H](CC[C@@H]3CC=CC(=O)O3)[C@H]21` [DHLV, α,β-dehydrolovastatin], the “Effect on cell viability (MTT)” value (T84 cells) is reported as “did not affect cell viability”, the inhibition at 20 µM ([1]; read-out: Inhibition of CT-induced ISC) is reported as greater than 90% and the inhibition at 20 µM ([1]; read-out: Inhibition of STa-induced ISC) is reported as greater than 90%. The “Effect on FITC-dextran flux (barrier integrity)” value (T84 cell monolayers) was “no effect”.
